By UniProt entry, the sequences of proteins in these tests, tags left out.
UniProt Q72874, entry or part of it I84V/L63P/V82T: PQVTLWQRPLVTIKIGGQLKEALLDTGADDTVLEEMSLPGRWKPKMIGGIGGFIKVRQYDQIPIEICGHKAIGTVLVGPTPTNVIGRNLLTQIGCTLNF

In ChEMBL document CHEMBL1154744, “HIV-1 protease inhibitors with a transition-state mimic comprising a tertiary alcohol: improved antiviral activity in cells” (J Med Chem, 2010):

Molecular target: Human immunodeficiency virus type 1 protease (Human immunodeficiency virus 1, UniProt Q72874, I84V/L63P/V82T)
Test: Inhibition of HIV1 protease L63P, V82T, I84V mutant

Work on COC(=O)N[C@H](C(=O)NN(CC[C@@](O)(Cc1ccccc1)C(=O)N[C@H]1c2ccccc2C[C@H]1O)Cc1ccc(-c2ccccn2)cc1)C(C)(C)C yielded a pKi of 7.80.

pKi: −log10 of the molar value.
